One substance from publication PMC10508830 (Antiviral research, 2023) can be followed below.

The assay deals with NA of clade 2.3.4.4b A(H5N1) viruses lacking the flagged NA substitutions (n = 15) (Influenza A virus, UniProt Q9Q0U7). It is filed as biochemical.

pIC50: −log10 of the molar value.

For oseltamivir carboxylate, the “relative potency at inhibiting NA activity” value is “least potent”. In addition, the negative logarithm of the IC50 (pIC50) (read-out: Median IC50 A(H5N1)) was 8.58.

The pIC50 is −log10 of the IC50, conventionally taken in molar units.
